Results of unrelated studies side by side (data: NIAID ChemDB).

Shared fields: enzyme or target tests; organism: HIV-1; protein: Reverse transcriptase; measure: IC50

ICn: concentration for n% inhibition.

SMILES	strain	mutations	read by	result
COc1cc2c(cc1N)CN(c1nn3c(C4CC4)nnc3c3ccccc13)CC2	IIIB		RT activity / fluorescence	3.79 µM
CC(C)(C)c1ccc(-n2nnnc2SCC(=O)Nc2ccc(NS(=O)(=O)Cc3ccccc3)cc2Cl)c(Cl)c1	WT		PicoGreen / fluorescence	<1 µM
CCN1c2ncc(CCOc3ccc(C(C)CC(=O)O)c4ccccc34)cc2C(=O)N(C)c2cccnc21		RT-K103N Y181C	nucleotide incorporation / radiometric	0.1–1 µM
CC(C)(C)c1ccc(-n2nnnc2SCC(=O)Nc2ccc(OCC(=O)NCc3ccc(N)cc3)cc2Cl)c(Cl)c1	WT		PicoGreen / fluorescence	<1 µM
CCN1c2ncc(CCOc3ccc(NC(=O)CC(C)(C)C(=O)O)c4ccccc34)cc2C(=O)N(C)c2cccnc21	WT		nucleotide incorporation / radiometric	<0.1 µM
CC(C)Nc1cccnc1N1CCN(C(=O)c2cc3cc(O)ccc3[nH]2)CC1			nucleotide incorporation	<100 µM
Cc1ccc(-n2nnnc2SCC(=O)Nc2ccc(-c3cccc(C(=O)O)c3)cc2Cl)c(Cl)c1	WT		PicoGreen / fluorescence	<1 µM
CCN1c2ncc(CCOc3ccc(-c4ccc[n+]([O-])c4)cc3C)cc2C(=O)N(C)c2cccnc21	IIIB	RT-K103N Y181C	nucleotide incorporation / radiometric	<0.05 µM
CC(C)(C#Cc1ccc(NC(=O)CSc2nnnn2-c2ccc(C(C)(C)C)cc2Cl)c(Cl)c1)OCC(=O)Nc1ccon1		RT-K103 Y181C	PicoGreen / fluorescence	<1 µM
Nc1cc2c(cc1F)CN(c1nn3c(C4CC4)nnc3c3ccccc13)CC2	IIIB		RT activity / fluorescence	0.28 µM
CCN1c2ncc(CCOc3ccc(-c4ncccn4)cc3)cc2C(=O)N(C)c2cccnc21	IIIB		nucleotide incorporation / radiometric	<0.05 µM
CCN1c2ncc(CCOc3ccc(CCC(=O)O)c4c3CCCC4)cc2C(=O)N(C)c2cccnc21		RT-Y188L	nucleotide incorporation / radiometric	>1 µM
CN(C)c1ccc(NC(=O)COc2ccc(NC(=O)CSc3nnnn3-c3ccc(C(C)(C)C)cc3Cl)c(Cl)c2)cc1		RT-K103 Y181C	PicoGreen / fluorescence	<1 µM
Cc1c(N2CCc3ccccc3C2)nn2c(C)nnc2c1C	IIIB		RT activity / fluorescence	57.3 µM
CC(C)Nc1cccnc1N1CCN(C(=O)c2cc3cc(NC(=O)CN)ccc3[nH]2)CC1			nucleotide incorporation	<100 µM
COc1cccc(-c2nnc3c4ccccc4c(N4CCc5ccccc5C4)nn23)c1	KER2008		RT activity / fluorescence	67 µM
Cc1cc(OCC(=O)O)ccc1-c1ccc(NC(=O)CSc2nnnn2-c2ccc(C(C)(C)C)cc2Cl)c(Cl)c1	WT		PicoGreen / fluorescence	<1 µM
CCN1c2ncc(CCOc3ccc(CC(=O)NN)c4ccccc34)cc2C(=O)N(C)c2cccnc21	WT		nucleotide incorporation / radiometric	<0.1 µM
CCc1cc(NCc2nc3c(C)ccc(C)c3o2)c(=O)[nH]c1C		RT-Y181W	nucleotide incorporation	0.2961 µM
CCN1c2ncc(CCOc3ccc(-c4ccc(O)cc4)cc3C)cc2C(=O)N(C)c2cccnc21	IIIB	RT-K103N Y181C	nucleotide incorporation / radiometric	<0.05 µM
CCC(C#Cc1ccc(NC(=O)CSc2nnnn2-c2ccc(C3CC3)cc2Cl)c(Cl)c1)(CC)NC(=O)OC(C)(C)C		RT-K103 Y181C	PicoGreen / fluorescence	<1 µM
CCN1c2ncc(CCOc3ccc(/C=C(\C)C(=O)O)c4ccccc34)cc2C(=O)Nc2c(C)ccnc21		RT-Y188L	nucleotide incorporation / radiometric	>1 µM
CC(C)(C#Cc1ccc(NC(=O)CSc2nnnn2-c2ccc(C(C)(C)C)cc2Cl)c(Cl)c1)OCC(=O)O	WT		PicoGreen / fluorescence	<1 µM
CCN1c2ncc(CCOc3ccc(-c4occc4C(=O)O)cc3)cc2C(=O)N(C)c2cccnc21	IIIB		nucleotide incorporation / radiometric	>0.1 µM
Cc1nnc2c3c(c(N4CCc5ccccc5C4)nn12)C1CCC3CC1	IIIB		RT activity / fluorescence	6.59 µM
CC(C)(C#Cc1ccc(NC(=O)CSc2nnnn2-c2ccc(C3CC3)cc2Cl)c(Cl)c1F)OCCOc1ccc[n+]([O-])c1		RT-K103 Y181C	PicoGreen / fluorescence	<1 µM
CC(C)(C)Nc1ccnnc1N1CCN(C(=O)c2cc3cc(OCc4ccccc4)ccc3[nH]2)CC1			nucleotide incorporation	<100 µM
CCN1c2ncc(CCOc3ccc(CC(=O)O)c4ccccc34)cc2C(=O)Nc2c(C)ccnc21		RT-Y188L	nucleotide incorporation / radiometric	>1 µM
COC(=O)c1ccc2c(c1)CN(c1nn3c(C)nnc3c3ccccc13)CC2	KER2008		RT activity / fluorescence	3.91 µM
CCN1c2ncc(CCOc3ccc(C(=O)O)c4c3CCN(S(C)(=O)=O)C4)cc2C(=O)N(C)c2cccnc21		RT-V106A	nucleotide incorporation / radiometric	>1 µM
CN(C)c1ccc(Cl)c(-n2nnnc2SCC(=O)Nc2ccc(C#CC(C)(C)C(=O)O)cc2Cl)c1		RT-K103 Y181C	PicoGreen / fluorescence	<1 µM
c1ccc2c(c1)CCN(c1nn3c(-c4cscn4)nnc3c3ccccc13)C2	98US_MSC5016		RT activity / fluorescence	1.56 µM
CC(C)c1ccc(-n2nnnc2SCC(=O)Nc2ccc(C#CC(C)(C)C(=O)O)cc2Cl)c(Br)c1	WT		PicoGreen / fluorescence	<1 µM
CCNc1cccnc1N1CCN(C(=O)c2ccc3ccccc3c2)CC1			nucleotide incorporation	<100 µM
CCNC(=O)NC(C)(C)C#Cc1ccc(NC(=O)CSc2nnnn2-c2ccc(C3CC3)cc2Cl)c(Cl)c1	WT		PicoGreen / fluorescence	<1 µM
CCN1c2ncc(CCOc3ccc4cc(C(=O)NC(C)(C)C(=O)O)ccc4c3)cc2C(=O)N(C)c2cccnc21		RT-Y188L	nucleotide incorporation / radiometric	>1 µM

Repeating the final 3 entries:

SMILES,strain,mutations,read by,result
CCNc1cccnc1N1CCN(C(=O)c2ccc3ccccc3c2)CC1,,,nucleotide incorporation,<100 µM
CCNC(=O)NC(C)(C)C#Cc1ccc(NC(=O)CSc2nnnn2-c2ccc(C3CC3)cc2Cl)c(Cl)c1,WT,,PicoGreen / fluorescence,<1 µM
CCN1c2ncc(CCOc3ccc4cc(C(=O)NC(C)(C)C(=O)O)ccc4c3)cc2C(=O)N(C)c2cccnc21,,RT-Y188L,nucleotide incorporation / radiometric,>1 µM

Blank or dashed fields: not listed here. Two numbers with a dash give a range or band. Neighbouring rows are from separate reports.